Anti-infective test results gathered from many reports (values: NIAID ChemDB through PubChem).

Shared fields: tests in culture; organism: Mycobacterium tuberculosis

Inhibition is in % at the dose shown (toxicity tests: loss of growth or viability). ECn is the concentration giving n% inhibition of infection, replication or growth. MIC bound: limit read from a one-dose screen. Blank or dashed fields: not listed here. Lines come from different laboratories, so protocols vary. a–b is a range or a potency band. A number after MIC or MFC names an inhibition level or a share of isolates.

| compound | strain or isolate | mutations | method | tested at | read-out | cells | value |
|---|---|---|---|---|---|---|---|
| COc1cc2c(cc1O)C(c1cc(O)c(O)c(OC)c1)C(O)(C(=O)O)C(CO)C2O | H37Rv |  | BACTEC |  | MIC |  | ≥12.8 µg/mL |
| CC/C(=C(\c1ccccc1)c1ccc(OCCN(C)C)cc1)c1ccccc1 | MDR |  | resazurin |  | MIC |  | 6.25–12.5 µg/mL |
| CC1(C)S[C@@H]2[C@H](NC(=O)[C@H](N)c3ccccc3)C(=O)N2[C@H]1C(=O)O | BRE |  |  |  | MIC |  | >92 µM |
| COc1ccc(C2C3=C(CCC(CN(C)C)C3=O)OC3=C2C(=O)C(CN(C)C)CC3)cc1 | H37Rv |  | BACTEC |  | MIC bound |  | >12.5 µg/mL |
| COc1ccc2c(=O)n(-c3ccc(Cl)cc3)c(=O)oc2c1 | CNCTC MY331/88 |  |  |  | MIC |  | 16 µM |
| CC(=O)Nc1ccc(OCC(=O)NN2C(=O)CSC2c2ccccc2Cl)cc1 | H37Rv |  |  | 12.5 µg/mL | inhibition |  | 0% |
| O=S1(=O)OC(c2ccc(O)c(O)c2)(c2ccc(O)c(O)c2)c2ccccc21 | H37Rv |  | BACTEC | 6.25 µg/mL | inhibition |  | 0% |
| Brc1ccc(-n2cc(CNC3c4ccccc4-c4ccccc43)nn2)cc1 | H37Rv |  | broth dilution |  | MIC99 |  | 240 µM |
| OC(c1cc(-c2ccc(Cl)cc2)nc2c(Cl)cccc12)C1CCCCN1 | H37Rv |  | resazurin |  | MIC |  | 0.78 µg/mL |
| COc1ccc(-n2cc(CS(=O)(=O)C3c4ccccc4-c4ccccc43)nn2)cc1 | H37Rv |  | broth dilution |  | MIC99 |  | 120 µM |
| CC(C)n1c(-c2ccc(Cl)cc2)cs/c1=N\NC(=O)COc1cnccn1 | H37Rv |  |  |  | MIC |  | 16 µg/mL |
| O/N=C1\CC/C(=N\O)c2ccccc21 | H37Rv |  | BACTEC | 12.5 µg/mL | inhibition |  | 47% |
| CCOC(=O)COc1cnccn1 | H37Rv |  |  |  | MIC |  | >200 µg/mL |
| O=C1CC(c2ccccc2)Oc2c(I)cccc21 | H37Rv |  |  |  | EC50 |  | >12.5 µg/mL |
| CCOc1cc2oc3cc(OCC)c(C(C)=O)c(CC=C(C)C)c3c(=O)c2c(O)c1CC=C(C)C | H37Ra |  | resazurin |  | MIC |  | >200 µg/mL |
| COc1ccc(C2SC(C)C(=O)N2NC(=O)COc2ccc(NC(C)=O)cc2)cc1OC | H37Rv |  |  | 12.5 µg/mL | inhibition |  | 0% |
| O=c1oc2cc(Cl)ccc2c(=O)n1-c1ccc(Br)cc1 | CNCTC MY331/88 |  |  |  | MIC |  | 8 µM |
| c1ccc(-n2cc(CNC3c4ccccc4-c4ccccc43)nn2)cc1 | H37Rv |  | broth dilution |  | MIC99 |  | >295 µM |
| CCOc1cc2oc3cc(=O)/c(=C(\C)O)c(CCC(C)C)c3c(O)c2c(=O)c1CCC(C)C | H37Ra |  | resazurin |  | MIC |  | 12.5 µg/mL |
| CO[C@H]1/C=C/O[C@@]2(C)Oc3c(C)c(O)c4c(=O)c(c5oc6cc(N7CCN(C(C)C)CC7)cc(=O)c6nc5c4c3=C2O)NC(=O)/C(C)=C\C=C\[C@H](C)[C@H](O)[C@@H](C)[C@@H](O)[C@@H](C)[C@H](OC(C)=O)[C@@H]1C | 2749 (rifampin-sensitive) |  |  |  | MBC |  | 0.1 µg/mL |
| C[C@H]1COc2c(N3CCN(C)CC3)c(F)cc3c(=O)c(C(=O)O)cn1c23 | 45 strains (drug-susceptible) |  |  |  | MIC50 |  | ≤0.5 µg/mL |
| COc1ccc(-c2cs/c(=N\NC(=O)COc3cnccn3)n2CC(C)C)cc1 | H37Rv |  |  |  | MIC |  | 17 µg/mL |
| O=C(/C=C/c1ccccn1)c1ccccn1 |  |  |  |  | EC50 |  | >12.5 µg/mL |
| O=C(COc1cnccn1)N/N=c1\scc(-c2ccc(Br)cc2)n1-c1ccc(Cl)cc1 | H37Rv |  |  |  | MIC |  | 10.7 µg/mL |
| CC(=O)N1CCN(C23OC4(N5CCN(C(C)=O)CC5)C5C6CC(C7C6C4C72)C53)CC1 | H37Rv |  | resazurin |  | MIC bound |  | >6.25 µg/mL |
| COc1ccccc1/C=C/C(=O)c1ccccc1O |  |  |  | 12.5 µg/mL | inhibition |  | 39% |
| Cn1nc(C(N)=O)c(=O)[nH]c1=S | H37Rv |  | resazurin | 6.25 µg/mL | inhibition |  | 7% |
| CC(=O)OC[C@H]1O[C@@H](Oc2cc(OC(C)=O)c3c(=O)cc(-c4ccc(OC(C)=O)cc4)oc3c2C2C(=O)c3c(OC(C)=O)cc(OC(C)=O)cc3OC2c2ccc(OC(C)=O)cc2)[C@H](OC(C)=O)[C@@H](OC(C)=O)[C@@H]1OC(C)=O | H37Rv |  |  |  | EC50 |  | >12.5 µg/mL |
| O=c1oc2ccccc2c(=O)n1-c1cccc([N+](=O)[O-])c1 | CNCTC MY331/88 |  |  |  | MIC |  | 31 µM |
| CN(Cc1ccc(CO[C@@H]2COc3nc([N+](=O)[O-])cn3C2)cc1)c1ccc(OC(F)(F)F)cc1 |  |  | resazurin |  | MIC90 |  | 0.03 µM |
| COc1cc2oc3cc(O)c(CCC(C)C)c(O)c3c(=O)c2c(CCC(C)C)c1OC | M21 |  | resazurin |  | MIC |  | 1.56 µg/mL |
| O=c1oc2ccc(Br)cc2c(=O)n1-c1ccc(Cl)cc1 | CNCTC MY331/88 |  |  |  | MIC |  | 8 µM |
| CO[C@H]1/C=C/O[C@@]2(C)Oc3c(C)c(O)c4c(O)c(c(/C=N/N5CCN(C6CCCC6)CC5)c(O)c4c3C2=O)NC(=O)/C(C)=C\C=C\[C@H](C)[C@H](O)[C@@H](C)[C@@H](O)[C@@H](C)[C@H](OC(C)=O)[C@@H]1C | H37Rv |  |  |  | MIC |  | 1.25 µg/mL |
| O=[N+]([O-])c1cn2c(n1)OC[C@@H](OCc1ccc(CNc3ccc(C(F)(F)F)nc3)cc1)C2 |  |  | resazurin |  | MIC90 |  | 0.25 µM |
| O=C1c2ccccc2OC(c2ccccc2)C1I |  |  |  |  | EC50 |  | >12.5 µg/mL |
| N#CC1OC(COC(=O)c2ccccc2)C(OC(=O)c2ccccc2)C1OC(=O)c1ccccc1 | H37Rv |  | BACTEC | 12.5 µg/mL | inhibition |  | 2% |
| CCCCOc1cc2oc3cc(O)c(CCC(C)C)c(O)c3c(=O)c2c(CCC(C)C)c1C(C)=O | H37Ra |  | resazurin |  | MIC |  | 1.56 µg/mL |
| O=[N+]([O-])c1cn2c(n1)OC[C@@H](OCc1ccc(N3CCN(c4ccc(C(F)(F)F)cn4)CC3)cc1)C2 |  |  | low oxygen |  | MIC90 |  | 4.9 µM |
| O=c1oc2ccc([N+](=O)[O-])cc2c(=O)n1-c1ccccc1 | CNCTC MY331/88 |  |  |  | MIC |  | 62 µM |
| O=[N+]([O-])c1cn2c(n1)OC[C@@H](OCc1ccc(Oc3ccc(C(F)(F)F)cc3)nc1)C2 |  |  | resazurin |  | MIC90 |  | 0.04 µM |
| O=C(/C=C/c1cccc(I)c1)c1ccccc1O | H37Rv |  |  |  | EC50 |  | <12.5 µg/mL |
| CCN(CC)c1cc2oc3cc(N)cc(=N)c-3nc2cc1C | H37Rv |  | BACTEC |  | MIC |  | 1.6 µg/mL |
| C[C@@H]1CN(c2c(F)c(N)c3c(=O)c(C(=O)O)cn(C4CC4)c3c2F)C[C@H](C)N1 | Isolate 11 |  |  |  | MIC |  | 0.25 µg/mL |
| CO[C@H]1/C=C/O[C@@]2(C)Oc3c(C)c(O)c4c(O)c(c5sc(N)nc5c4c3C2=O)NC(=O)/C(C)=C\C=C\[C@H](C)[C@H](O)[C@@H](C)[C@@H](O)[C@@H](C)[C@H](OC(C)=O)[C@@H]1C | H37Rv |  | BACTEC |  | MIC |  | 0.39 µg/mL |
| CCCOc1cc2oc3cc(O)c(CCC(C)C)c(O)c3c(=O)c2c(CCC(C)C)c1OC | M22 | MDR | resazurin |  | MIC |  | 6.25 µg/mL |
| OCCN1CCN(CCCN2c3ccccc3Sc3ccc(C(F)(F)F)cc32)CC1 | H37Rv |  | BACTEC |  | MIC | VERO | 12.5 µg/mL |
| O=[N+]([O-])c1ccccc1-n1cc(CS(=O)(=O)C2c3ccccc3-c3ccccc32)nn1 | H37Rv |  | broth dilution |  | MIC99 |  | >231 µM |
| O=C(/C=C/c1cc2ccccc2[nH]1)c1ccncc1 | H37Rv |  |  | 12.5 µg/mL | inhibition |  | 12% |
| C=C1C(=O)[C@@]23CC[C@H]4C(C)(CCC[C@@]4(C)C(=O)OC)[C@@H]2CC[C@]1(O)C3 | H37Rv |  | BACTEC |  | MIC bound |  | ≤12.5 µg/mL |
| COc1c(OCC(N)=O)cc2oc3cc(OCC(N)=O)c(CCC(C)C)c(O)c3c(=O)c2c1CCC(C)C | H37Ra |  | resazurin |  | MIC |  | >200 µg/mL |
| CC(=O)Nc1ccc(OCC(=O)NN2C(=O)CSC2c2ccc(Cl)cc2Cl)cc1 | H37Rv |  |  |  | EC50 |  | >12.5 µg/mL |
| CC(=O)N1C(=O)C2(NCC(C)N2)c2ccccc21 | H37Rv |  | BACTEC |  | MIC bound |  | >12.8 µg/mL |
| NC(=O)c1cnccn1 | CDC89 niacin-positive |  |  |  | MIC |  | ≤4 µg/mL |
| CO[C@H]1/C=C/O[C@@]2(C)Oc3c(C)c(O)c4c(O)c(c5c(c4c3C2=O)NC2(CCN(CC(C)C)CC2)N=5)=NC(=O)/C(C)=C\C=C\[C@H](C)[C@H](O)[C@@H](C)[C@@H](O)[C@@H](C)[C@H](OC(C)=O)[C@@H]1C | 2983 (rifampin-sensitive) |  |  |  | MBC |  | 0.05 µg/mL |
| NC(=O)c1cnccn1 | TB213 |  |  |  | MIC |  | <25 µg/mL |
| O=C1C2C3C=CC(C2C(=O)N1CN1CCSCC1)C1C2C(=O)N(CN4CCSCC4)C(=O)C2C31 | H37Rv |  | resazurin |  | MIC bound |  | >6.25 µg/mL |
| O=C(COc1cnccn1)N/N=c1\scc(-c2ccc(Br)cc2)n1-c1ccc(Cl)cc1Cl | H37Rv |  |  |  | MIC |  | 22 µg/mL |
| NNc1cc2c(nn1)CCN(C(=O)c1ccccc1)C2 | H37Rv |  | resazurin | 6.25 µg/mL | inhibition |  | 43% |
| COc1ccc(/C=C/C(=O)c2ccc(F)cc2O)cc1 | H37Rv |  |  |  | EC50 |  | <12.5 µg/mL |
| COc1ccc2oc(=O)n(-c3ccc(F)cc3)c(=O)c2c1 | CNCTC MY331/88 |  |  |  | MIC |  | 125 µM |
| CCOc1cc2oc3cc(O)c(CCC(C)C)c(O)c3c(=O)c2c(CCC(C)C)c1C(C)=O | H37Ra |  | resazurin |  | MIC |  | 1.56 µg/mL |
| Cc1c(N)nc([C@H](CC(N)=O)NC[C@@H](N)C(N)=O)nc1C(=O)N[C@H](C(=O)NC(C)C(O)CC(=O)NC(C(=O)NC(OC1OC(C)C(N)C(O)C1O)C(O)c1nc(-c2nc(C(=O)NCCCCN)cs2)cs1)[C@H](C)O)C(OC1OC(CO)C(O)C(O)C1OC1OC(CO)C(O)C(OC(N)=O)C1O)c1cnc[nH]1.Cl.Cl.Cl.Cl | H37Rv |  | BACTEC |  | MIC |  | 0.1 µg/mL |
| O=c1oc2ccc(F)cc2c(=O)n1-c1ccc(Br)cc1 | CNCTC MY331/88 |  |  |  | MIC |  | 8 µM |
| CC(=O)Nc1ccc(OCC(=O)N/N=C/c2ccco2)cc1 | H37Rv |  |  |  | EC50 |  | >12.5 µg/mL |
| CC1CNC(c2ccc(NC(=O)Nc3cc(C(=O)Nc4ccc(C5=NC(C)CN5)cc4)ccc3C(=O)Nc3ccc(C4=NC(C)CN4)cc3)cc2)=N1 | H37Rv |  | BACTEC |  | MIC bound |  | <6.25 µg/mL |
| CO/N=C1\CN(c2nc3c(cc2F)c(=O)c(C(=O)O)cn3C2CC2)CC1CN | 37 strains (drug-resistant) |  |  |  | MIC50 |  | >4 µg/mL |
| Cc1c(N=Nc2ccc(Br)cc2)c(-c2ccccc2)nn1C(=S)S | RMP-R |  |  |  | MIC |  | 12.5 µg/mL |
| Cc1ccc2oc(=O)n(-c3ccccc3)c(=O)c2c1 | CNCTC MY331/88 |  |  |  | MIC |  | 32 µM |
| CO[C@H]1/C=C/O[C@@]2(C)Oc3c(C)c(O)c4c(O)c(c(/C=N/N5CCN(C)CC5)c(O)c4c3C2=O)NC(=O)/C(C)=C\C=C\[C@H](C)[C@H](O)[C@@H](C)[C@@H](O)[C@@H](C)[C@H](OC(C)=O)[C@@H]1C | Isolate 17 |  |  |  | MIC |  | <0.03 µg/mL |
| CC(=O)c1c(O)c(C)c(O)c2c1OC1=CC(=O)/C(=C(\C)N)C(=O)C12C | H37Rv |  | BACTEC | 12.5 µg/mL | inhibition |  | 53% |
| CC(=O)c1c(OC(=O)c2ccccc2)cc2oc3cc(OC(=O)c4ccccc4)c(CC=C(C)C)c(O)c3c(=O)c2c1CC=C(C)C | H37Ra |  | resazurin |  | MIC |  | >200 µg/mL |
| CN(C)CCCNc1ccc(O)c2sc3ccccc3c(=O)c12 | H37Rv |  | BACTEC |  | MIC bound |  | >12.5 µg/mL |
| COc1ccc(-c2cs/c(=N\NC(=O)COc3cnccn3)n2-c2ccc(Cl)cc2[N+](=O)[O-])cc1 | H37Rv |  |  |  | MIC |  | 8 µg/mL |
| O=[N+]([O-])c1cn2c(n1)OC[C@@H](OCc1ccc(Oc3ccc(F)cc3)cn1)C2 |  |  | low oxygen |  | MIC90 |  | 12 µM |
| NNC(=O)c1ccncc1 | Isolate 16 |  |  |  | MIC |  | 1 µg/mL |
| COc1ccc2oc(=O)n(-c3ccc(Cl)cc3)c(=O)c2c1 | CNCTC MY331/88 |  |  |  | MIC |  | 62.5 µM |